Anti-infective test results gathered from many reports (values: NIAID ChemDB through PubChem).

Shared fields: tests in culture; agent: HIV-1; endpoint: EC50

a–b is a range or a potency band.

CC(C)CC(NC(=O)OC(C)(C)C)C(=O)N1CCC(=O)C1 ; read by: syncytia / trypan blue ; cells: MT-4 ; result: >100 µM
O=c1ncc2nc(-c3ccccn3)c(-c3ccccn3)nc2[nH]1 ; strain or isolate: IIIB ; read by: cytopathic effect / MTT / absorbance ; cells: MT-4 ; result: >82.3 µM
COc1cc(Br)ccc1/C=C/c1cc(Cl)c2cc(Cl)ccc2n1 ; strain or isolate: UG070 ; read by: luminescence ; cells: TZM-bl ; result: 8.56 µM
O=C(N/N=C/c1ccncc1)C1CCCCC1 ; read by: cell fusion / luminescence ; cells: HeLa ; result: >112 µM
CC(C)[C@H](NC(=O)[C@H](NCc1ccccc1)[C@H](O)[C@H](Cc1ccccc1)NC(=O)[C@@H](NC(=O)OCc1ccccc1)C(C)(C)C)C(=O)NCc1ccccc1 ; strain or isolate: IIIB ; read by: MTT / p24 ; cells: HuT-78 + HUT 78 ; result: 0.145 µM
O=C(C(=O)N1CCN(C(=O)c2ccccc2)CC1C(=O)O)c1c[nH]c2cccc(F)c12 ; read by: luciferase ; cells: HeLa + HELA CD4+/CCR5 ; result: <10 µM
COc1ccc(-c2csc3nc4nc(-c5ccccn5)c(-c5ccccn5)nc4c(=O)n23)cc1 ; strain or isolate: IIIB ; read by: cytopathic effect / MTT / absorbance ; cells: MT-4 ; result: >2.11 µM
CC(C)(C)OC(=O)NCC(=O)N1CCC(=O)C1 ; read by: syncytia / trypan blue ; cells: MT-4 ; result: >100 µM
CC(C)[C@H](NC(=O)OCc1ccccc1)C(=O)N[C@@H](Cc1ccccc1)[C@@H](O)[C@@H](NCc1ccc(Br)cc1)C(=O)N[C@H](C(=O)NCc1nc2ccccc2[nH]1)C(C)C ; strain or isolate: IIIB ; read by: MTT / p24 ; cells: MT-4 ; result: 0.0203 µM
Clc1nccc2nc(-c3cccs3)cnc12 ; strain or isolate: IIIB ; read by: cytopathic effect / MTT / absorbance ; cells: MT-4 ; result: >5.23 µM
COc1ccc(/C=C/c2cc(Cl)c3cc(Cl)ccc3n2)c(OC)c1 ; strain or isolate: VB59 ; read by: luminescence ; cells: TZM-bl ; result: 0.53 µM
CC12CCC(C/C1=N\NC(=O)Nc1ccccc1)C2(C)C ; read by: cell fusion / luminescence ; cells: HeLa ; result: >112 µM
CC(C)(C)OC(=O)NC(Cc1ccc(OCc2ccccc2)cc1)C(=O)N1CCC(O)C1 ; read by: syncytia / trypan blue ; cells: MT-4 ; result: >100 µM
CC(C)C1=C2[C@H]3CC[C@@H]4[C@@]5(C)CC[C@H](OC(=O)[C@H]6C[C@@H](C(=O)O)C6(C)C)C(C)(C)[C@@H]5CC[C@@]4(C)[C@]3(C)CC[C@@]2(CCNC[C@H]2CCCCN2)CC1=O ; strain or isolate: 92HT599 ; read by: p24 / ELISA ; cells: MT-2 ; result: <1 µM
COc1ccc(/C=C/c2cc(Cl)c3ccccc3n2)c(OC)c1 ; strain or isolate: UG070 ; read by: luminescence ; cells: TZM-bl ; result: 6.18 µM
C[C@@H]1CN(C(=O)c2ccccc2)CCN1C(=O)C(=O)c1c[nH]c2c(F)cccc12 ; read by: luciferase ; cells: HeLa + HELA CD4+/CCR5 ; result: <10 µM
CC(C)C1=C2[C@H]3CC[C@@H]4[C@@]5(C)CC[C@H](OC(=O)[C@H]6C[C@@H](C(=O)O)C6(C)C)C(C)(C)[C@@H]5CC[C@@]4(C)[C@]3(C)CC[C@@]2(CCNCC2(N)CCC2)CC1=O ; strain or isolate: 92HT599 ; read by: p24 / ELISA ; cells: MT-2 ; result: <1 µM
O=C(NCc1ccc(F)cc1)c1nc2n(c(=O)c1O)CCOC21CCN(C(=O)OCc2ccccc2)C1 ; strain or isolate: NL4-3 ; read by: luciferase / reporter gene ; cells: MT-2 ; result: 0.001–0.01 µM
Cn1c(=O)n(C)c2cc(/C=N/NC(=O)Nc3ccccc3)ccc21 ; read by: cell fusion / luminescence ; cells: HeLa ; result: >112 µM
O=c1[nH]cnc2ncc(-c3cccs3)nc12 ; strain or isolate: IIIB ; read by: cytopathic effect / MTT / absorbance ; cells: MT-4 ; result: >48.22 µM
COc1ccc(OCC(=O)N=Nc2c(O)n(C)c3ccccc23)cc1 ; read by: cell fusion / luminescence ; cells: HeLa ; result: >112 µM
CC(C)C1=C2[C@H]3CC[C@@H]4[C@@]5(C)CC[C@H](OC(=O)[C@H]6C[C@@H](C(=O)O)C6(C)C)C(C)(C)[C@@H]5CC[C@@]4(C)[C@]3(C)CC[C@@]2(CCNC(=O)c2ccc(Cl)cc2O[C@@H]2CCOC2)CC1=O ; strain or isolate: 92HT599 ; read by: p24 / ELISA ; cells: MT-2 ; result: <1 µM
CC(C)OC(=O)N1CCC2(C1)OCCn1c2nc(C(=O)NCc2ccc(F)cc2)c(O)c1=O ; strain or isolate: NL4-3 ; read by: luciferase / reporter gene ; cells: MT-2 ; result: 0.001–0.01 µM
COc1ccc(Cl)c2[nH]cc(C(=O)C(=O)N3CCN(C(=O)c4ccc(N)cc4)C[C@H]3C)c12 ; read by: luciferase ; cells: HeLa + HELA CD4+/CCR5 ; result: <10 µM
COc1ccc(/C=C/c2cc(Cl)c3ccccc3n2)cc1 ; strain or isolate: VB59 ; read by: luminescence ; cells: TZM-bl ; result: 7.13 µM
CC(C)[C@H](NC(=O)OCc1ccccc1)C(=O)N[C@@H](Cc1ccccc1)[C@@H](O)[C@@H](NCc1ccccc1)C(=O)N[C@H](C(=O)NCc1nc2ccccc2[nH]1)C(C)C ; strain or isolate: IIIB ; read by: MTT / p24 ; cells: U-937 ; result: 0.048 µM
CC(C)C1=C2[C@H]3CC[C@@H]4[C@@]5(C)CC[C@H](OC(=O)[C@H]6C[C@@H](C(=O)O)C6(C)C)C(C)(C)[C@@H]5CC[C@@]4(C)[C@]3(C)CC[C@@]2(CC(=O)N(CCN(C)C)Cc2ccncn2)CC1=O ; strain or isolate: 92HT599 ; read by: p24 / ELISA ; cells: MT-2 ; result: <1 µM
Cc1ncnn1-c1cc(F)ccc1CNC(=O)c1nc2n(c(=O)c1O)CCCOC21CCN(C(=O)N(C)C)CC1 ; strain or isolate: NL4-3 ; read by: luciferase / reporter gene ; cells: MT-2 ; result: 0.001–0.01 µM
Clc1cc(CN2CCCNCCNCCCNCC2)cc(Cl)n1 ; strain or isolate: X4 clinical isolate #10 ; read by: p24 ; cells: PBMC ; result: 2.6 µM
CC(C)C1=C2[C@H]3CC[C@@H]4[C@@]5(C)CC[C@H](OC(=O)[C@H]6C[C@@H](C(=O)O)C6(C)C)C(C)(C)[C@@H]5CC[C@@]4(C)[C@]3(C)CC[C@@]2(CCNCC2CCCCC2)CC1=O ; strain or isolate: 92HT599 ; read by: p24 / ELISA ; cells: MT-2 ; result: <1 µM
Cc1cc(S(N)(=O)=O)ccc1NC(=O)COc1ccccc1C(=O)c1cc(Cl)cc(C#N)c1 ; changes: RT-L100I K103N ; read by: β-galactosidase ; cells: HeLa MAGI + HeLa ; result: <0.005 µM
Clc1cc(/C=C/c2ccc(OCc3ccccc3)cc2)nc2ccccc12 ; strain or isolate: UG070 ; read by: luminescence ; cells: TZM-bl ; result: 77.99 µM
Clc1nccc2nc(-c3ccccn3)c(-c3ccccn3)nc12 ; strain or isolate: IIIB ; read by: cytopathic effect / MTT / absorbance ; cells: MT-4 ; result: >67.36 µM
CCC(=O)C(=O)N1CCC2(CC1)OCCn1c2nc(C(=O)NCc2ccc(F)cc2)c(O)c1=O ; strain or isolate: NL4-3 ; read by: luciferase / reporter gene ; cells: MT-2 ; result: 0.001–0.01 µM
C[C@H](Cn1cnc2c(N)ncnc21)OCP(=O)(O)O ; strain or isolate: Clinical isolate ; changes: M41L/A98G/K103N/M184V/L210W/T215Y ; read by: recombinant virus assay ; cells: MT-2 ; result: 0.0112 µM
CC(C)C1=C2[C@H]3CC[C@@H]4[C@@]5(C)CC[C@H](OC(=O)[C@H]6C[C@@H](C(=O)O)C6(C)C)C(C)(C)[C@@H]5CC[C@@]4(C)[C@]3(C)CC[C@@]2([C@@H](O)CNC(=O)C(C)(C)NC(=O)c2ccc(Cl)cc2O[C@H]2CCOC2)CC1=O ; strain or isolate: 92HT599 ; read by: p24 / ELISA ; cells: MT-2 ; result: <1 µM
Clc1ccc2nc(/C=C/c3ccc(N4CCOCC4)cc3)cc(Cl)c2c1 ; strain or isolate: UG070 ; read by: luminescence ; cells: TZM-bl ; result: 97.85 µM
CC(=O)N1CCC2(CC1)OCCCn1c2nc(C(=O)NCc2ccc(F)cc2-n2ncnc2C)c(O)c1=O ; strain or isolate: NL4-3 ; read by: luciferase / reporter gene ; cells: MT-2 ; result: 0.01–0.1 µM
O=C(NN=C1CCCCC1)NC1CCCCC1 ; read by: cell fusion / luminescence ; cells: HeLa ; result: >112 µM
COC[C@@H](c1ccc(C(F)(F)F)cc1)N1CCN(C2(C)CCN(C(=O)c3c(C)ncnc3C)CC2)C[C@@H]1C ; strain or isolate: R14 ; cells: TZM-bl ; result: 0.0037 µM
CC(C)[C@H](NC(=O)CCc1nc2ccccc2[nH]1)C(=O)N[C@@H](Cc1ccccc1)[C@@H](O)[C@@H](NCc1ccccc1)C(=O)N[C@H](C(=O)NCc1ccccc1)C(C)C ; strain or isolate: IIIB ; read by: MTT / p24 ; cells: MT-4 ; result: 0.0545 µM
CSc1ccc(S)c(C(=O)N2CCN(C(=O)C(=O)c3c[nH]c4cccc(F)c34)CC2)c1 ; read by: luciferase ; cells: HeLa + HELA CD4+/CCR5 ; result: <10 µM
CC(C)(C)OC(=O)N1CCC(=O)C1 ; read by: syncytia / trypan blue ; cells: MT-4 ; result: >100 µM
COc1cccc2[nH]cc(C(=O)C(=O)N3CCN(C(=O)c4ccccn4)C[C@H]3C)c12 ; read by: luciferase ; cells: HeLa + HELA CD4+/CCR5 ; result: <10 µM
O=C(Cc1ccccc1)N/N=C/C=C/c1ccco1 ; read by: cell fusion / luminescence ; cells: HeLa ; result: >112 µM
CC(C)[C@H](NC(=O)[C@H](NCc1ccc(Cl)cc1)[C@H](O)[C@H](Cc1ccccc1)NC(=O)[C@@H](NC(=O)OCc1ccccc1)C(C)(C)C)C(=O)NCc1nc2ccccc2[nH]1 ; strain or isolate: IIIB ; read by: MTT / p24 ; cells: HuT-78 + HUT 78 ; result: 0.0203 µM
O=C(C(=O)N1CCN(C(=O)c2ccc(Br)cc2S)CC1)c1c[nH]c2cccc(Cl)c12 ; read by: luciferase ; cells: HeLa + HELA CD4+/CCR5 ; result: <10 µM
S=c1[nH]c(=S)c2nc(-c3ccccn3)c(-c3ccccn3)nc2[nH]1 ; strain or isolate: IIIB ; read by: cytopathic effect / MTT / absorbance ; cells: MT-4 ; result: >93.23 µM

The last 4 rows once more:

compound	strain or isolate	changes	read by	cells	result
O=C(Cc1ccccc1)N/N=C/C=C/c1ccco1			cell fusion / luminescence	HeLa	>112 µM
CC(C)[C@H](NC(=O)[C@H](NCc1ccc(Cl)cc1)[C@H](O)[C@H](Cc1ccccc1)NC(=O)[C@@H](NC(=O)OCc1ccccc1)C(C)(C)C)C(=O)NCc1nc2ccccc2[nH]1	IIIB		MTT / p24	HuT-78 + HUT 78	0.0203 µM
O=C(C(=O)N1CCN(C(=O)c2ccc(Br)cc2S)CC1)c1c[nH]c2cccc(Cl)c12			luciferase	HeLa + HELA CD4+/CCR5	<10 µM
S=c1[nH]c(=S)c2nc(-c3ccccn3)c(-c3ccccn3)nc2[nH]1	IIIB		cytopathic effect / MTT / absorbance	MT-4	>93.23 µM

Neighbouring rows are from separate reports. ECn is the concentration giving n% inhibition of infection, replication or growth. Blank or dashed fields: not listed here.